Measured values from several laboratories, pooled; numbers as filed in NIAID ChemDB.

All rows: whole-cell or culture tests; agent: Mycobacterium tuberculosis

Neighbouring rows are from separate reports. ECn is the concentration giving n% inhibition of infection, replication or growth. a–b is a range or a potency band. MIC bound comes from a single tested concentration. Inhibition is in % at the dose shown (toxicity tests: loss of growth or viability). MIC50, MIC90 and the like: level of inhibition, or share of isolates inhibited. Blank or dashed fields: not listed here.

smiles	strain or isolate	changes	method	measure	tested at	result
COC1CC(=O)c2cccc(O)c2C1=O	H37Rv			MIC		0.2 µg/mL
CC(=O)N1CCN(Cn2nc(-c3ccncc3)oc2=S)CC1	H37Rv			MIC		20 µg/mL
CC(C)Cn1c[n+](Cc2ccc([N+](=O)[O-])cc2)c2c1C(=O)c1ccccc1C2=O	H37Rv		resazurin	MIC bound		<6.25 µg/mL
COc1cc(-c2nnn(Cc3ccc(C#N)cc3)n2)ccc1S(=O)(=O)NCC(N)=O	H37Rv		resazurin	MIC		<0.1 µM
C[C@@]12CC[C@H]3[C@@H](CC[C@@H]4OC(=O)CC[C@]43C)[C@H]1CC[C@H]2O	H37Rv		BACTEC	MIC bound		>12.8 µg/mL
N#CCNS(=O)(=O)c1ccc(-c2nnn(Cc3ccc(F)cn3)n2)cc1	H37Rv		resazurin	MIC		<0.1 µM
CN1N=C(c2ccncc2)OC1c1cccc(Cl)c1	H37Rv			MIC		5 µg/mL
CC1CCCCN1n1nc(-c2ccncc2)oc1=O	H37Rv			MIC		2.5 µg/mL
COc1ccc(C2OC(c3ccncc3)=NN2C)cc1OC	6 PI			MIC		>20 µg/mL
CC(=O)NCC1CN(c2ccc(C(C)=O)cc2)C(=O)O1	H37RV (INH-R)			MIC		0.97 µg/mL
CC[C@H]1OC(=O)[C@H](C)[C@@H](O[C@H]2C[C@@](C)(OC)[C@@H](O)[C@H](C)O2)[C@H](C)[C@@H](O[C@@H]2O[C@H](C)C[C@H](N(C)C)[C@H]2O)[C@](C)(OC)C[C@@H](C)C(=O)[C@H](C)[C@@H](O)[C@]1(C)O	104396			MIC		>4 µg/mL
NC(=S)c1cncc(-n2cncn2)n1	H37Rv			MIC		250 µg/mL
CN(C)CCCN1c2ccccc2Sc2ccc(Cl)cc21	23583			MIC		10 µg/mL
CC(C)(C)CC(C)(O)CN(CC(C)(O)CC(C)(C)C)C(=S)S	EMB-R			MIC		3.1 µg/mL
CC1CCN(Cn2nc(-c3ccncc3)oc2=O)CC1	H37Rv			MIC		2.5 µg/mL
CC1(C)CC(N2CCN(C3CC(C)(C)NC(C)(C)C3)CC2)CC(C)(C)N1	H37Rv		resazurin	inhibition	6.25 µg/mL	-17%
O=C(NCCOc1ccccc1F)c1cc([N+](=O)[O-])cc(C(F)(F)F)c1	H37Rv		resazurin	MIC90		1 µg/mL
O=c1oc(-c2ccncc2)nn1CN1CCN(Cc2ccccc2)CC1	H37Rv			MIC		2.5 µg/mL
CCOC(=O)c1cc(C(=O)c2ccc(Cl)cc2)n2c1ccc1c3ncccc3ccc12	H37Rv		reporter gene / fluorescence	EC90		>100 µM
NC(=O)c1cncc(-n2ccnc2)n1	H37Rv			MIC		1000 µg/mL
CCC1CCC2CN(/N=C/c3c4c(O)c5c(O)c(C)c6c(c5c3O)C(=O)[C@@](C)(O/C=C/[C@H](OC)[C@@H](C)[C@@H](OC(C)=O)[C@H](C)[C@H](O)[C@H](C)[C@@H](O)[C@@H](C)/C=C/C=C(/C)C(=O)N4)O6)CCN2C1	H37RV (INH-R)			MIC		0.03 µg/mL
CCn1cc(C(=O)O)c(=O)c2cc(F)c(N3CCN(C(=O)Cc4ccccc4Nc4c(Cl)cccc4Cl)CC3)cc21	H37Rv			MIC		0.33 µM
NC(=S)c1cncc(-n2ccnc2)n1	Isoniazid-resistant			MIC		250 µg/mL
COc1cc([C@@H]2OC[C@H]3[C@@H]2CO[C@H]3c2cc(OC)c3c(c2)OCO3)cc(OC)c1OC	H37Rv		BACTEC	MIC bound		>12.5 µg/mL
COc1cc(-c2nnn(Cc3ccc(C#N)cc3)n2)ccc1S(=O)(=O)NCCO	H37Rv		resazurin	MIC		0.1–1 µM
O=c1oc2ccccc2c(O)c1C1=NN(c2ccccc2)C(c2ccccc2-c2ccccn2)C1	H37Rv		agar	MIC90		>6.25 µg/mL
C/C=C1\C(=O)O[C@]23C=C[C@@H]4C(C(=O)OC)=CO[C@H](O[C@@H]12)[C@@H]43	MDR1 clinical isolate		MTT	MIC		2.2 µg/mL
CC1CCCCN1c1cncc(C(N)=S)n1	Isoniazid-resistant			MIC		62.5 µg/mL
O=C(NCCOc1ccc(Br)cc1)c1cc([N+](=O)[O-])cc(C(F)(F)F)c1	H37Rv		resazurin	MIC90		1 µg/mL
CC(C)[C@H](C)[C@@H](O)[C@H](O)[C@@H](C)[C@H]1CC[C@H]2[C@@H]3COC(=O)[C@H]4C[C@H](O)[C@H](O)C[C@]4(C)[C@H]3CC[C@]12C	H37Rv		BACTEC	inhibition	12.5 µg/mL	1%
CN1N=C(c2ccncc2)OC1c1ccc(Cl)cc1	6 PI			MIC		>20 µg/mL
CN(C)c1ccc(/C=N/NC(=O)Cc2ccccc2Nc2c(Cl)cccc2Cl)cc1	H37Rv			MIC		1.76 µM
O=C(O)c1cnccn1	H37Ra			inhibition	12.5 µg/mL	7%
O=C(N/N=C/c1ccc(Cl)c(Cl)c1)c1ccncc1	H37Rv		resazurin	MIC		≤0.1 µg/mL
COc1cccc(C2CC(c3c(O)c4cc(C)c(C)cc4oc3=O)=NN2c2ccccc2)c1O	INHR-MTB	Isoniazid-resistant	agar	MIC90		>6.25 µg/mL
NNC(=O)c1ccncc1	10 isolates			MIC		0.06–0.48 µg/mL
COc1ccc(C(=O)[C@@H]2C[C@H](C#N)[C@@H]3C=Cc4c(ccc5cccnc45)N23)cc1	H37Rv		reporter gene / fluorescence	EC50		>200 µM
O=C(NNC(=S)Nc1cccc(Cl)c1)c1ccncc1	H37Rv		resazurin	MIC bound		<6.25 µg/mL
NNC(=O)c1ccncc1	MTB11			MIC		≤0.12 µg/mL
NCC(=O)N/N=C/c1ccc([N+](=O)[O-])o1	PAS-R			MIC		6.3 µg/mL
NNC(=O)c1ccncc1	104396			MIC		≥0.2 µg/mL
O=C(O)c1cn(C2CC2)c2cc(N3CCN(C(=O)Cc4ccccc4Nc4c(Cl)cccc4Cl)CC3)c(F)cc2c1=O	H37Rv			MIC		0.16 µM
Cc1ccc(Cn2nnc(-c3ccc(S(=O)(=O)NCC(N)=O)cc3)n2)cc1	H37Rv		resazurin	MIC		<0.1 µM
COC(=O)c1c(C(=O)OC)c2ccc3c4ncccc4ccc3n2c1C(=O)c1ccc(Br)cc1	H37Rv		reporter gene / fluorescence	EC50		>20 µM
N#Cc1ccc(Cn2nnc(-c3ccc(S(N)(=O)=O)cc3)n2)cc1	H37Rv		resazurin	MIC		1–5 µM
Cc1ccc(C(=O)[C@@H]2[C@H]3C(=O)N(c4ccccc4)C(=O)[C@H]3[C@H]3C=Cc4c(ccc5cccnc45)N32)cc1	H37Rv		reporter gene / fluorescence	EC90		>200 µM
O=C1CC(SC(=S)N2CCCCC2)C(=O)N1c1ccccc1	RMP-R			MIC		3.2 µg/mL
COC(=O)c1c(C(=O)OC)c2ccc3c4ncccc4ccc3n2c1C(=O)c1ccc(C)cc1	H37Rv		reporter gene / fluorescence	MIC		>200 µM
N=C1SC23CCCN2C(=O)C2(CCCN2C3=O)S1	H37Rv		resazurin	inhibition	6.25 µg/mL	7%
O=C(Cc1ccccc1Nc1c(Cl)cccc1Cl)N/N=C(\c1ccccc1)c1ccc(Br)cc1	H37Rv			MIC		0.36 µM
O=S(=O)(c1ccccc1)N1c2ccccc2Sc2ccccc21	H37Rv		BACTEC	inhibition	12.5 µg/mL	-41%
Cc1ccc(-c2nc3sc(C)nn3c2COCc2cn(-c3ccccc3F)nn2)cc1	H37Rv		agar	MIC		50 µg/mL
CC(C)c1c(O)ccc2c1CCC1C(C)(C)CCC[C@]21C	H37Rv			EC50		>12.5 µg/mL
Cc1cc2oc(=O)c(C3=NNC(c4ccccc4-c4ccccn4)C3)c(O)c2cc1C	INHR-MTB	Isoniazid-resistant	agar	MIC90		>6.25 µg/mL
CN(C)c1ccc(-c2nnc3c(c(=O)n(C)c(=O)n3C)[n+]2[O-])cc1	H37Rv		BACTEC	MIC		1.56 µg/mL
NNC(=O)c1ccncc1	H37Rv		agar	MIC		3.125 µg/mL
S=c1oc(-c2ccncc2)nn1CN1CCN(Cc2ccccc2)CC1	H37Rv			MIC		40 µg/mL
CCOC(=O)c1cc(C(=O)c2ccccc2)n2c1ccc1c3ncccc3ccc12	H37Rv		reporter gene / fluorescence	MIC		>200 µM
CCN(CC)CCNc1ccc(C)c2sc3c(O)cccc3c(=O)c12	H37Rv		BACTEC	inhibition	12.5 µg/mL	99%
COc1c(N2C[C@@H]3CCCN[C@@H]3C2)c(F)cc2c(=O)c(C(=O)O)cn(C3CC3)c12	5 isolates drug-resistant			MIC50		0.062 µg/mL
COc1ccc(C2OC(c3ccncc3)=NN2C)cc1F	6 PI			MIC		>20 µg/mL
Cc1cc2oc(=O)c(C3=NN(c4ccccc4)C(c4ccc(O)cc4O)C3)c(O)c2cc1C	INHR-MTB	Isoniazid-resistant	agar	MIC90		>6.25 µg/mL
CC1CCCCN1Cn1nc(-c2ccncc2)oc1=S	H37Rv			MIC		40 µg/mL
Cc1cc2oc(=O)c(C(=O)/C=C/c3ccc(Cl)cc3Cl)c(O)c2cc1C	H37Rv		agar	MIC90		>6.25 µg/mL
CC(C)[C@H]1C(=O)OC[C@@H](NC(=O)c2cnc3ccccc3n2)C(=O)N[C@@H](C)C(=O)N(C)[C@@H]2CSSC[C@H](C(=O)N1C)N(C)C(=O)[C@H](C)NC(=O)[C@H](NC(=O)c1cnc3ccccc3n1)COC(=O)[C@H](C(C)C)N(C)C2=O	RMP-R			MIC		0.8 µg/mL
CC1CCCCN1c1cncc(C(=O)NN)n1	H37Rv			MIC		250 µg/mL
Cc1ncc([N+](=O)[O-])n1Cc1nncs1	H37Rv		resazurin	MIC bound		>6.25 µg/mL
Cc1cc2oc(=O)c(C(=O)/C=C/c3ccc(C(F)(F)F)cc3)c(O)c2cc1C	H37Rv		agar	MIC90		>6.25 µg/mL
Cc1c(-c2ccc(C(=N)N)cc2)oc(-c2ccc(C(=N)N)cc2)c1C	H37Rv		BACTEC	MIC bound		>12.5 µg/mL
O=c1oc(-c2ccncc2)nn1CN1CCC(Cc2ccccc2)CC1	H37Rv			MIC		2.5 µg/mL
CC1=NN(c2ccccc2)C(=O)C1N=Nc1ccc(S(=O)(=O)Nc2cc(C)nc(C)n2)cc1	H37Rv		BACTEC	MIC bound		>12.5 µg/mL
CN[C@@H]1[C@H](O[C@H]2[C@H](O[C@H]3[C@H](O)[C@@H](O)[C@H](N=C(N)N)[C@@H](O)[C@@H]3N=C(N)N)O[C@@H](C)[C@]2(O)C=O)O[C@@H](CO)[C@H](O)[C@H]1O	9363 (streptomycin-S isoniazid-R)			MIC		<4 µg/mL
NC[C@@H]1O[C@H](O[C@H]2[C@@H](O)[C@H](O[C@@H]3[C@@H](O)[C@H](N)C[C@H](N)[C@H]3O[C@H]3O[C@H](CO)[C@@H](O)C[C@H]3N)O[C@@H]2CO)[C@H](N)[C@@H](O)[C@@H]1O[C@H]1O[C@H](CO)[C@@H](O)[C@H](O)[C@@H]1O	Aoyama B			EC50		25–50 µg/mL
CC(=O)Oc1c(C/C=C(\C)CC/C=C(\C)CCC=C(C)C)c(=O)oc2ccccc12	H37Rv			MIC		>12.5 µg/mL
CN1C(=O)c2ccccc2N=CN1C(=O)Nc1ccccc1	H37Rv		BACTEC	MIC bound		>12.5 µg/mL
CC1COc2c(N3CCN(C)CC3)c(F)cc3c(=O)c(C(=O)O)cn1c23	25 strains			MIC90		0.78 µg/mL
Cc1cc(O)c2c(c1)C(=O)C=CC2=O	Isoniazid/rifampicin-resistant			MIC		50 µg/mL
COc1ccc(C(C)c2cc(N=NC(N)=O)c(OC)cc2O)cc1	H37Rv		BACTEC	inhibition	12.5 µg/mL	27%
O=c1oc(-c2ccncc2)nn1CN1CCCCCC1	H37Rv			MIC		2.5 µg/mL
O=c1oc2ccccc2c(O)c1C1=NN(c2ccccc2)C(c2ccc(O)cc2O)C1	INHR-MTB	Isoniazid-resistant	agar	MIC90		>6.25 µg/mL

The last 12 rows once more:

{"smiles": "Cc1c(-c2ccc(C(=N)N)cc2)oc(-c2ccc(C(=N)N)cc2)c1C", "strain or isolate": "H37Rv", "method": "BACTEC", "measure": "MIC bound", "result": ">12.5 µg/mL"}
{"smiles": "O=c1oc(-c2ccncc2)nn1CN1CCC(Cc2ccccc2)CC1", "strain or isolate": "H37Rv", "measure": "MIC", "result": "2.5 µg/mL"}
{"smiles": "CC1=NN(c2ccccc2)C(=O)C1N=Nc1ccc(S(=O)(=O)Nc2cc(C)nc(C)n2)cc1", "strain or isolate": "H37Rv", "method": "BACTEC", "measure": "MIC bound", "result": ">12.5 µg/mL"}
{"smiles": "CN[C@@H]1[C@H](O[C@H]2[C@H](O[C@H]3[C@H](O)[C@@H](O)[C@H](N=C(N)N)[C@@H](O)[C@@H]3N=C(N)N)O[C@@H](C)[C@]2(O)C=O)O[C@@H](CO)[C@H](O)[C@H]1O", "strain or isolate": "9363 (streptomycin-S isoniazid-R)", "measure": "MIC", "result": "<4 µg/mL"}
{"smiles": "NC[C@@H]1O[C@H](O[C@H]2[C@@H](O)[C@H](O[C@@H]3[C@@H](O)[C@H](N)C[C@H](N)[C@H]3O[C@H]3O[C@H](CO)[C@@H](O)C[C@H]3N)O[C@@H]2CO)[C@H](N)[C@@H](O)[C@@H]1O[C@H]1O[C@H](CO)[C@@H](O)[C@H](O)[C@@H]1O", "strain or isolate": "Aoyama B", "measure": "EC50", "result": "25–50 µg/mL"}
{"smiles": "CC(=O)Oc1c(C/C=C(\\C)CC/C=C(\\C)CCC=C(C)C)c(=O)oc2ccccc12", "strain or isolate": "H37Rv", "measure": "MIC", "result": ">12.5 µg/mL"}
{"smiles": "CN1C(=O)c2ccccc2N=CN1C(=O)Nc1ccccc1", "strain or isolate": "H37Rv", "method": "BACTEC", "measure": "MIC bound", "result": ">12.5 µg/mL"}
{"smiles": "CC1COc2c(N3CCN(C)CC3)c(F)cc3c(=O)c(C(=O)O)cn1c23", "strain or isolate": "25 strains", "measure": "MIC90", "result": "0.78 µg/mL"}
{"smiles": "Cc1cc(O)c2c(c1)C(=O)C=CC2=O", "strain or isolate": "Isoniazid/rifampicin-resistant", "measure": "MIC", "result": "50 µg/mL"}
{"smiles": "COc1ccc(C(C)c2cc(N=NC(N)=O)c(OC)cc2O)cc1", "strain or isolate": "H37Rv", "method": "BACTEC", "measure": "inhibition", "tested at": "12.5 µg/mL", "result": "27%"}
{"smiles": "O=c1oc(-c2ccncc2)nn1CN1CCCCCC1", "strain or isolate": "H37Rv", "measure": "MIC", "result": "2.5 µg/mL"}
{"smiles": "O=c1oc2ccccc2c(O)c1C1=NN(c2ccccc2)C(c2ccc(O)cc2O)C1", "strain or isolate": "INHR-MTB", "changes": "Isoniazid-resistant", "method": "agar", "measure": "MIC90", "result": ">6.25 µg/mL"}